PubChem BioAssay AID449764 (Southern Research Specialized Biocontainment Screening …, 2010)

System: Mycobacterium tuberculosis H37Rv growth inhibition, no glycerol
Test: Mycobacterium tuberculosis H37Rv growth inhibition, no glycerol, confirmatory dose response (AID 449764);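 note: growth read after 7 days of incubation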
Settings: measured here: IC90 growth inhibition

Q: Which IC90 does the source give for `O=C(OC1CN2CCC1CC2)C1c2ccccc2Oc2ccccc21` (stereo unspecified) here?
A: The IC90 was 28.3 µM.
